Assay results published in publication PMC6211256, “From cycloheptathiophene-3-carboxamide to oxazinone-based derivatives as allosteric HIV-1 ribonuclease H inhibitors” (Journal of Enzyme Inhibition and Medicinal Chemistry, 2018).

Biological target: p66/p51 HIV-1 RT (Human immunodeficiency virus type 1 group M subtype B, UniProt P04585)
Test: Differential scanning fluorimetry (thermal stability of RT)
Type: binding
Settings: increasing concentration of compound; 100 ng/µl HIV-1 RT

CCOc1ccc(N2CC(C)CN3C2=NC2C3C(=O)N(CC(=O)OCc3ccccc3)C(=O)N2C)cc1 (stereo not shown)
change of RT melting temperature (Tm): decreased the Tm
